# Results as given in PMC3358452 (Chemical Research in Toxicology, 2012).
# Test system: F344 rat liver
smiles,measurement,setting,value
"O=C1COCCO1 [compound 1, 1,4-Dioxan-2-one]",promotion of AFB1-induced foci (in words),"1 (1.32 g over 12 weeks) after AFB1, group 2 vs group 1, t-test",failed to statistically increase focal number or focal volume percent
same,rats with a focus,"group 3 (1 only), cumulative total dose 1.32 g",one of 8
